# US9226954B2, “Method for treating and confirming diagnosis of exertional compartment syndrome” (dated 2016)
# Test system: adductor longus muscle
# Assay: Targeted botulinum toxin injection into the distal adductor longus of a patient with exertional compartment syndrome
# [1] = overall conclusion of the example
substance,measurement,setting,value
onabotulinumtoxin A,post procedural complications,"after injection, CT imaging",No evidence of post procedural complications
same,adverse reactions during monitoring,approximately 15-30 minutes following the procedure,no adverse reactions
same,injection site findings at follow-up phone call,day following the injection,minor bruising and pain at the injection site
same,symptoms while competing at full activity,five weeks post treatment,completely asymptomatic
same,weakness at full activity,improved with continued training,minimal weakness with lateral motion
same,effect on athletic performance,[1],no adverse affect on athletic performance
same,resolution of symptoms,[1],complete resolution of symptoms
same,"compression of femoral artery and femoral vein on ultrasound (FIGS. 8A, 8B)","three weeks after treatment, at rest and under stress",no compression
same,adverse side effects,three weeks follow-up,no adverse side effects were observed or reported
same,symptoms at full activity,three weeks post injection,completely asymptomatic
same,venous compression under stress maneuvers on sonographic imaging,three weeks post injection,no evidence of venous compression
